Patent US20170327565A1 (published 2017)

Biological target: purified recombinant ectodomain of H5 HA (A/Vietnam/1203/2004, Clade1) (influenza A/Vietnam/1203/2004 (H5N1), UniProt Q8QPL1 17-531)
Assay: ELISA

B1: V4-17 (antibody, V domains shown)
VH: QLQLQESGPGLVKPSETLSLTCTVSGGSITRNSYFWGWIRQPPGKGLEWIGSMYYDGTTYHNPSLKSRLTLSADTSKNQFSVRLSSVTAADTAVYYCARHHVTELRVLEWLPKSDY
VL: QSVLTQPPSASGTPGQRVTISCSGSSSNIGTYYVHWYQHLPGTAPKLLIYDNNQRPSGVPDRFSGSKSGTSASLAISGLRSEDEADYHCAAWDDSLSGVV
B1: no binding.
